These molecules were tested against DEN2V NS2B-G4SG4-NS3 serine protease (Dengue virus type 2 (DENV-2), UniProt Q91H74) (assay: DEN2V Protease Inhibition Assay).

Compound | IC50 [µM]
NCc1ccccc1-c1ccc(C[n+]2cc([N-]C(=O)Nc3cccc(C(F)(F)F)c3)on2)nc1 [Example 121, (3-((5-(2-(aminomethyl)phenyl)pyridin-2-yl)methyl)-1,2,3-oxadiazol-3-ium-5-yl)((3-(trifluoromethyl)phenyl)carbamoyl)amide] | 1 to 20
Cc1ncnc(OCCN(C)C)c1-c1ccc(C[n+]2cc([N-]C(=O)Nc3cccc(C(F)(F)F)c3)on2)nc1 [Example 123, ((3-((5-(4-(2-(metheyliumyl(methyl)ammonio)ethoxy)-6-methylpyrimidin-5-yl)pyridin-2-yl)methyl)-1,2,3-oxadiazol-3-ium-5-yl)((3-(trifluoromethyl)phenyl)carbamoyl)amide) (2,2,2-trifluoroacetate)] | 1 to 20
O=C([N-]c1c[n+](Cc2ccc(-c3cnn4c3CNCC4)cn2)no1)Nc1cccc(C(F)(F)F)c1 [Example 124, (3-((5-(4,5,6,7-tetrahydropyrazolo[1,5-a]pyrazin-3-yl)pyridin-2-yl)methyl)-1,2,3-oxadiazol-3-ium-5-yl)((3-(trifluoromethyl)phenyl)carbamoyl)amide] | 1 to 20
O=C([N-]c1c[n+](Cc2ccc(-c3cncnc3)cn2)no1)Nc1cncc(C(F)(F)F)c1 [Example 125, (3-((5-(pyrimidin-5-yl)pyridin-2-yl)methyl)-1,2,3-oxadiazol-3-ium-5-yl)((5-(trifluoromethyl)pyridin-3-yl)carbamoyl)amide] | 1 to 20
Cc1noc(C)c1-c1ccc(C[n+]2cc([N-]C(=O)Nc3cncc(C(F)(F)F)c3)on2)nc1 [Example 126, (3-((5-(3,5-dimethylisoxazol-4-yl)pyridin-2-yl)methyl)-1,2,3-oxadiazol-3-ium-5-yl)((5-(trifluoromethyl)pyridin-3-yl)carbamoyl)amide] | 1 to 20
Cc1noc(C)c1-c1ccc(C[n+]2cc([N-]C(=O)Nc3cncc(C(F)(F)F)c3)on2)cc1 [Example 127, (3-(4-(3,5-dimethylisoxazol-4-yl)benzyl)-1,2,3-oxadiazol-3-ium-5-yl)((5-(trifluoromethyl)pyridin-3-yl)carbamoyl)amide] | 1 to 20
Cc1cnncc1-c1ccc(C[n+]2cc([N-]C(=O)Nc3cncc(C(F)(F)F)c3)on2)nc1 [Example 128, (3-((5-(5-methylpyridazin-4-yl)pyridin-2-yl)methyl)-1,2,3-oxadiazol-3-ium-5-yl)((5-(trifluoromethyl)pyridin-3-yl)carbamoyl)amide] | 1 to 20
Cc1cnncc1-c1ccc(C[n+]2cc([N-]C(=O)Nc3cccc(C(F)(F)F)c3)on2)nc1 [Example 129, (3-((5-(5-methylpyridazin-4-yl)pyridin-2-yl)methyl)-1,2,3-oxadiazol-3-ium-5-yl)((3-(trifluoromethyl)phenyl)carbamoyl)amide] | 1 to 20
Cc1ncnc(C)c1-c1ccc(C[n+]2cc([N-]C(=O)Nc3cccc(C(F)(F)F)c3)on2)nc1 [Example 130, (3-((5-(4,6-dimethylpyrimidin-5-yl)pyridin-2-yl)methyl)-1,2,3-oxadiazol-3-ium-5-yl)((3-(trifluoromethyl)phenyl)carbamoyl)amide] | 1 to 20
O=C([N-]c1c[n+](Cc2ccc(-c3cncnc3C(F)(F)F)cn2)no1)Nc1cccc(C(F)(F)F)c1 [Example 131, ((3-(trifluoromethyl)phenyl)carbamoyl)(3-((5-(4-(trifluoromethyl)pyrimidin-5-yl)pyridin-2-yl)methyl)-1,2,3-oxadiazol-3-ium-5-yl)amide] | 1 to 20
Cc1ncnc(C)c1-c1ccc(C[n+]2cc([N-]C(=O)Nc3cncc(C(F)(F)F)c3)on2)nc1 [Example 132, (3-((5-(4,6-dimethylpyrimidin-5-yl)pyridin-2-yl)methyl)-1,2,3-oxadiazol-3-ium-5-yl)((5-(trifluoromethyl)pyridin-3-yl)carbamoyl)amide] | 1 to 20
COc1ncc(-c2ccc(C[n+]3cc([N-]C(=O)Nc4cncc(C(F)(F)F)c4)on3)nc2)c(C)n1 [Example 133, (3-((5-(2-methoxy-4-methylpyrimidin-5-yl)pyridin-2-yl)methyl)-1,2,3-oxadiazol-3-ium-5-yl)((5-(trifluoromethyl)pyridin-3-yl)carbamoyl)amide] | 1 to 20
COc1ncc(-c2ccc(C[n+]3cc([N-]C(=O)Nc4cccc(C(F)(F)F)c4)on3)nc2)c(C)n1 [Example 134, (3-((5-(2-methoxy-4-methylpyrimidin-5-yl)pyridin-2-yl)methyl)-1,2,3-oxadiazol-3-ium-5-yl)((3-(trifluoromethyl)phenyl)carbamoyl)amide] | 1 to 20
COc1ncnc(C)c1-c1ccc(C[n+]2cc([N-]C(=O)Nc3cccc(C(F)(F)F)c3)on2)nc1 [Example 135, (3-((5-(4-methoxy-6-methylpyrimidin-5-yl)pyridin-2-yl)methyl)-1,2,3-oxadiazol-3-ium-5-yl)((3-(trifluoromethyl)phenyl)carbamoyl)amide] | 1 to 20
COc1ncnc(C)c1-c1ccc(C[n+]2cc([N-]C(=O)Nc3cncc(C(F)(F)F)c3)on2)nc1 [Example 136, (3-((5-(4-methoxy-6-methylpyrimidin-5-yl)pyridin-2-yl)methyl)-1,2,3-oxadiazol-3-ium-5-yl)((5-(trifluoromethyl)pyridin-3-yl)carbamoyl)amide] | 1 to 20
O=C([N-]c1c[n+](Cc2ccc(-c3cncnc3C(F)(F)F)cn2)no1)Nc1cncc(C(F)(F)F)c1 [Example 137, ((5-(trifluoromethyl)pyridin-3-yl)carbamoyl)(3-((5-(4-(trifluoromethyl)pyrimidin-5-yl)pyridin-2-yl)methyl)-1,2,3-oxadiazol-3-ium-5-yl)amide] | 1 to 20
Cc1ncnc(C)c1-c1ccc(C[n+]2cc([N-]C(=O)Nc3ccnc(C(F)(F)F)c3)on2)cc1 [Example 185, (3-(4-(4,6-dimethylpyrimidin-5-yl)benzyl)-1,2,3-oxadiazol-3-ium-5-yl)((2-(trifluoromethyl)pyridin-4-yl)carbamoyl)amide] | 1 to 20
Cc1noc(C)c1-c1ccc(C[n+]2cc([N-]C(=O)Nc3ccnc(C(F)(F)F)c3)on2)cc1 [Example 186, (3-(4-(3,5-dimethylisoxazol-4-yl)benzyl)-1,2,3-oxadiazol-3-ium-5-yl)((2-(trifluoromethyl)pyridin-4-yl)carbamoyl)amide] | 1 to 20

Reference: patent US20250353853A1, “FLAVIVIRUS INHIBITORS” (IRBM S.P.A., priority 2022, published 2025)
